Anti-infective test results gathered from many reports (values: NIAID ChemDB through PubChem).

Common to all: toxicity to cultured cells; cell line: MCF-7; measure: CC50

Neighbouring rows are from separate reports.

structure,read by,result
COc1c(C)c(C)c2[nH]c3ccccc3c2c1OC,resazurin,26.2 µg/mL
CCOC(=O)CNC1=C(C#N)C2=C(CCC/C2=C\c2ccncc2)C(c2ccncc2)S1,MTT,>50 µM
COc1ccc2[nH]c3c(C)c(C)c(OC)c(OC)c3c2c1,resazurin,21.3 µg/mL
C[N+](C)(C)C(Cc1c[nH]c2ccccc12)C(=O)[O-],resazurin,>50 µg/mL
CN1C=CN(c2cccc(N3C=CN(C)C3)n2)C1.[Cl][Au].[Cl][Au],sulforhodamine / absorbance,>30 µM
COC1=Cc2c(cc(OC3=C4C(=CC(=O)C4(C)C)c4cc(OC)c(C)cc4C3=O)c3cc(C)c(OC)cc23)C(C)(C)C1=O,absorbance,>10 µM
N#Cc1c(N)c2c3c([nH]c2[nH]c1=O)SC(c1ccncc1)C1=C3/C(=C/c2ccncc2)CCC1,MTT,15.6 µM
C/C(=C\C[C@H](O)[C@@H](C)[C@H]1CC[C@@]2(C)C3=C(CC[C@]12C)[C@@]1(C)CCC(=O)C(C)(C)C1CC3)C(=O)O,resazurin,>50 µg/mL
CCO/C=N\C1=C(C#N)C2=C(CCC/C2=C\c2ccncc2)C(c2ccncc2)S1,MTT,49.6 µM
C[C@H]([C@@H]1CC[C@@H](C)C(=O)O1)[C@H]1CC[C@@]2(C)C3=C(CC[C@]12C)[C@@]1(C)CC[C@@H](O)C(C)(C)C1CC3,resazurin,>50 µg/mL
COc1ccc2[nH]c3c(Cc4ccc5[nH]c6c(C)c(C)c(OC)c(O)c6c5c4)c(C)c(OC)c(O)c3c2c1,resazurin,30.3 µg/mL
Nc1c2c(nc(=O)n1-c1ccccc1)SC(c1ccncc1)C1=C2/C(=C/c2ccncc2)CCC1,MTT,14.8 µM
C[C@@H]1C[C@@H](O)[C@H]2C3=C(C[C@H](O)[C@@]2(O)C1)C(=O)c1c(O)cccc1C3=O,resazurin,3.6 µM
CCOC1N=C2C3=C(N=CN2N1c1ccccc1)SC(c1ccncc1)C1=C3/C(=C/c2ccncc2)CCC1,MTT,13.9 µM
COc1c(C)c(C)c2[nH]c3ccc(Cc4c(C)c(OC)c(O)c5c4[nH]c4ccccc45)cc3c2c1O,resazurin,36.3 µg/mL

CCn: concentration that lowers growth or viability of the cells by n%.